Measured values from several laboratories, pooled; numbers as filed in NIAID ChemDB.

Common to all: tests in culture; organism: Mycobacterium avium intracellulare

An empty or dashed field is not shown. MIC50, MIC90 and the like: level of inhibition, or share of isolates inhibited. Lines come from different laboratories, so protocols vary.

SMILES	measure	strain	value
CCNC(=O)[C@@H](NC(=O)Cc1ccccc1)[C@@H]1N[C@@H](C(=O)NCCNC(=O)[C@@H]2N[C@@H]([C@H](NC(=O)Cc3ccccc3)C(=O)NCC)SC2(C)C)C(C)(C)S1	MIC	CIPT 140310031	25 µg/mL
CN(C)CCCN1c2ccccc2Sc2ccc(Cl)cc21	MIC	V 915	25 µg/mL
CCCCCCCCCCCCCCN(C)C(=O)O[C@H]1C(O[C@@H]2[C@@H](C)[C@H](O[C@H]3C[C@@](C)(OC)[C@@H](OC(C)=O)[C@H](C)O3)[C@@H](C)C(=O)O[C@H](CC)[C@@](C)(O)[C@H](O)[C@@H](C)/C(=N/OCCCC3CCCCC3)[C@H](C)CC2(C)O)O[C@H](C)C[C@@H]1N(C)C	MIC	20066	0.2 µg/mL
NC(=O)c1cnccn1	MBC	ATCC 13950	>200 µg/mL
CO[C@H]1/C=C/O[C@@]2(C)Oc3c(C)c(O)c4c(=O)c(c5oc6cc(N7CCN(CC(C)C)CC7)cc(=O)c6nc5c4c3=C2O)NC(=O)/C(C)=C\C=C\[C@H](C)[C@H](O)[C@@H](C)[C@@H](O)[C@@H](C)[C@H](OC(C)=O)[C@@H]1C	MBC	N-260	1 µg/mL
C[C@@H]1CN(c2c(F)c(N)c3c(=O)c(C(=O)O)cn(C4CC4)c3c2F)C[C@H](C)N1	MIC90		12.5 µg/mL
OCCN1CCN(CC/C=C2/c3ccccc3Sc3ccc(C(F)(F)F)cc32)CC1	MIC	ATCC 23432	6.25 µg/mL
CCO/N=C1\[C@H](C)CC(C)(O)[C@H](O[C@@H]2O[C@H](C)C[C@H](N(C)C)[C@H]2O)[C@@H](C)[C@H](OC2C[C@@](C)(OC)[C@@H](O)[C@H](C)O2)[C@@H](C)C(=O)O[C@H](CC)[C@@](C)(O)[C@H](O)[C@H]1C	MIC	20066	6.25 µg/mL
CCCCNC(=O)O[C@H]1C(O[C@@H]2[C@@H](C)[C@H](O[C@H]3C[C@@](C)(OC)[C@@H](OC(C)=O)[C@H](C)O3)[C@@H](C)C(=O)O[C@H](CC)[C@@](C)(O)[C@H](O)[C@@H](C)/C(=N/OCCCC3CCCCC3)[C@H](C)CC2(C)O)O[C@H](C)C[C@@H]1N(C)C	MIC	20075	0.2 µg/mL
CO[C@H]1/C=C/O[C@@]2(C)Oc3c(C)c(O)c4c(O)c(c(/C=N/N5CCN(C6CCCC6)CC5)c(O)c4c3C2=O)NC(=O)/C(C)=C\C=C\[C@H](C)[C@H](O)[C@@H](C)[C@@H](O)[C@@H](C)[C@H](OC(C)=O)[C@@H]1C	MIC	74	≤0.125 µg/mL
CC(=O)NC[C@H]1CN(c2ccc(N3CCN(c4ccc([N+](=O)[O-])s4)CC3)c(F)c2)C(=O)O1	MIC	19/97	0.25 µg/mL
CO[C@H]1/C=C/O[C@@]2(C)Oc3c(C)c(O)c4c(O)c(c5c(c4c3C2=O)NC2(CCN(CC(C)C)CC2)N=5)=NC(=O)/C(C)=C\C=C\[C@H](C)[C@H](O)[C@@H](C)[C@@H](O)[C@@H](C)[C@H](OC(C)=O)[C@@H]1C	MIC	N-809 (HIV-)	0.25 µg/mL
COc1c(O)c2c(=O)cc(OC)c3c4c(OC)cc(=O)c5c(O)c(OC)c6c(c(c1CC(C)=C6OC(C)=O)c23)c54	MIC		>100 µg/mL
CC(C)N=c1cc2n(-c3ccc(Cl)cc3)c3ccccc3nc-2cc1Nc1ccc(Cl)cc1	MIC	TB60	1 µg/mL
CC[C@H]1OC(=O)[C@H](C)[C@@H](OC2C[C@@](C)(OC)[C@@H](O)[C@H](C)O2)[C@H](C)[C@@H](O[C@@H]2O[C@H](C)C[C@H](N(C)C)[C@H]2O)C(C)(O)C[C@@H](C)/C(=N\OCCN(C)c2ccccc2)[C@H](C)[C@@H](O)[C@]1(C)O	MIC	20066	1.56 µg/mL
CC[C@H]1OC(=O)[C@H](C)[C@@H](O[C@H]2C[C@@](C)(OC)[C@@H](OC(C)=O)[C@H](C)O2)[C@H](C)[C@@H](OC2O[C@H](C)C[C@H](N(C)C)[C@H]2OC(=O)NCC(=O)NC)C(C)(O)C[C@@H](C)/C(=N\OCCCC2CCCCC2)[C@H](C)[C@@H](O)[C@]1(C)O	MIC	20073	1.56 µg/mL
CN[C@@H]1[C@H](O[C@H]2[C@H](O[C@H]3[C@H](O)[C@@H](O)[C@H](N=C(N)N)[C@@H](O)[C@@H]3N=C(N)N)O[C@@H](C)[C@]2(O)C=O)O[C@@H](CO)[C@H](O)[C@H]1O	MIC	CIPT 140310054	>50 µg/mL
CC/C=C/CCNC(=O)O[C@H]1C(O[C@@H]2[C@@H](C)[C@H](O[C@H]3C[C@@](C)(OC)[C@@H](OC(C)=O)[C@H](C)O3)[C@@H](C)C(=O)O[C@H](CC)[C@@](C)(O)[C@H](O)[C@@H](C)/C(=N/OCCCC3CCCCC3)[C@H](C)CC2(C)O)O[C@H](C)C[C@@H]1N(C)C	MIC	20075	0.2 µg/mL
COc1cc(NC(C)CCCN)c2nc(C(C)(C)C)ccc2c1Oc1cccc(C(F)(F)F)c1	MIC		5 µg/mL
CO[C@H]1/C=C/O[C@@]2(C)Oc3c(C)c(O)c4c(=O)c(c5oc6cc(N7CCN(CC(C)C)CC7)cc(=O)c6nc5c4c3=C2O)NC(=O)/C(C)=C\C=C\[C@H](C)[C@H](O)[C@@H](C)[C@@H](O)[C@@H](C)[C@H](OC(C)=O)[C@@H]1C	MIC	N-919 (HIV-)	≤0.0125 µg/mL
CCCCCNC(=O)O[C@H]1C(O[C@@H]2[C@@H](C)[C@H](O[C@H]3C[C@@](C)(OC)[C@@H](OC(C)=O)[C@H](C)O3)[C@@H](C)C(=O)O[C@H](CC)[C@@](C)(O)[C@H](O)[C@@H](C)/C(=N/OCCCC3CCCCC3)[C@H](C)CC2(C)O)O[C@H](C)C[C@@H]1N(C)C	MIC	20067	0.2 µg/mL
CC[C@H]1OC(=O)[C@H](C)[C@@H](O[C@H]2C[C@@](C)(OC)[C@@H](O)[C@H](C)O2)[C@H](C)[C@@H](O[C@@H]2O[C@H](C)C[C@H](N(C)C)[C@H]2O)[C@](C)(OC)C[C@@H](C)C(=O)[C@H](C)[C@@H](O)[C@]1(C)O	MIC	N-809 (HIV-)	0.25 µg/mL
C[C@@H](O)[C@H]1C(=O)N2C(C(=O)O)=C(SCCN=CN)C[C@H]12	MIC	CIPT 140310030	10 µg/mL
CC1COc2c(N3CCN(C)CC3)c(F)cc3c(=O)c(C(=O)O)cn1c23	MIC	N-260	50 µg/mL
OCCN1CCN(CCC=C2c3ccccc3Sc3ccc(Cl)cc32)CC1	MIC	T 7360	12.5 µg/mL
CC[C@H]1OC(=O)[C@H](C)[C@@H](OC2C[C@@](C)(OC)[C@@H](O)[C@H](C)O2)[C@H](C)[C@@H](O[C@@H]2O[C@H](C)C[C@H](N(C)C)[C@H]2O)C(C)(O)C[C@@H](C)/C(=N\OCCCCc2ccccc2)[C@H](C)[C@@H](O)[C@]1(C)O	MIC	20066	1.56 µg/mL
CC1(C)S[C@@H]2[C@H](NC(=O)[C@H](C(=O)[O-])c3ccsc3)C(=O)N2[C@H]1C(=O)[O-].[Na+].[Na+]	MIC	CIPT 140310021	35 µg/mL
COc1ccc2c(c1)N(C[C@H](C)CN(C)C)c1ccccc1S2	MIC	V 915	50 µg/mL
CCCCCCCCCCO/N=C1\[C@H](C)CC(C)(O)[C@H](O[C@@H]2O[C@H](C)C[C@H](N(C)C)[C@H]2O)[C@@H](C)[C@H](OC2C[C@@](C)(OC)[C@@H](O)[C@H](C)O2)[C@@H](C)C(=O)O[C@H](CC)[C@@](C)(O)[C@H](O)[C@H]1C	MIC	20066	6.25 µg/mL
NC(=S)c1cnccn1	MBC	ATCC 13950	100 µg/mL

4 of the rows above, restated:

CCCCCCCCCCO/N=C1\[C@H](C)CC(C)(O)[C@H](O[C@@H]2O[C@H](C)C[C@H](N(C)C)[C@H]2O)[C@@H](C)[C@H](OC2C[C@@](C)(OC)[C@@H](O)[C@H](C)O2)[C@@H](C)C(=O)O[C@H](CC)[C@@](C)(O)[C@H](O)[C@H]1C ; measure: MIC ; strain: 20066 ; value: 6.25 µg/mL
COc1ccc2c(c1)N(C[C@H](C)CN(C)C)c1ccccc1S2 ; measure: MIC ; strain: V 915 ; value: 50 µg/mL
CC(C)N=c1cc2n(-c3ccc(Cl)cc3)c3ccccc3nc-2cc1Nc1ccc(Cl)cc1 ; measure: MIC ; strain: TB60 ; value: 1 µg/mL
CC[C@H]1OC(=O)[C@H](C)[C@@H](O[C@H]2C[C@@](C)(OC)[C@@H](O)[C@H](C)O2)[C@H](C)[C@@H](O[C@@H]2O[C@H](C)C[C@H](N(C)C)[C@H]2O)[C@](C)(OC)C[C@@H](C)C(=O)[C@H](C)[C@@H](O)[C@]1(C)O ; measure: MIC ; strain: N-809 (HIV-) ; value: 0.25 µg/mL